Pooled drug test results. Numbers come from NIAID ChemDB, via PubChem.

All rows: growth or infection tests; agent: HIV-1

a–b is a range or a potency band. Conditions beyond the fields shown may differ between rows. ECn: concentration that inhibits the pathogen or its effect by n%. An empty or dashed field is not shown.

Cc1cn([C@H]2C=C[C@@H](CO)O2)c(=O)n(CCOCCN2CCN(CCNC(=S)Nc3ccc(Br)cn3)CC2)c1=O ; cell line: MT-4 ; read by: RT activity ; strain: IIIB ; endpoint: EC50 ; value: 52 µM
Cc1cc(C)cc(S(=O)(=O)c2c(C(=O)NS(=O)(=O)c3ccc(F)cc3)[nH]c3ccc(Cl)cc23)c1 ; cell line: MT-4 ; read by: MTT ; strain: IIIB ; endpoint: EC50 ; value: 3.23 µM
CCN1c2ncc(CCOc3ccc(NC(=O)c4ccc(C(=O)O)cc4)cc3C)cc2C(=O)N(C)c2cccnc21 ; cell line: C8166 ; read by: p24 ; strain: IIIB ; endpoint: EC50 ; value: 0.01–0.05 µM
COC(=O)c1sccc1NC(=O)CSc1nnnn1-c1c(C)cc(C)cc1C ; cell line: MT-4 ; read by: p24 ; endpoint: EC95 ; value: <10 µM
O=[N+]([O-])c1ccc[n+]([O-])c1SCc1ccccc1 ; cell line: CEM ; read by: syncytia ; strain: IIIB ; endpoint: EC50 ; value: 2.2 µg/mL
CCCCCCCCCCCCCCCCCC1O[C@@H](CO)[C@H](O)[C@H](O)[C@@H]1O ; cell line: TZM-bl ; read by: luciferase ; strain: NL4-3 ; endpoint: EC50 ; value: 42.18 µM
CC(=O)N[C@@H](CCCN(Cc1ccccc1)C(=O)N(C)N=O)C(=O)NCc1ccccc1 ; cell line: CEM-IW + CEM ; read by: cytopathic effect / XTT ; strain: IIIB ; endpoint: EC50 ; value: >100 µM
Cc1ccc(C(C)S(=O)(=O)c2c(C)ccc[n+]2[O-])c(C)c1 ; cell line: MT-2 ; read by: syncytia ; strain: IIIB ; endpoint: EC50 ; value: 8.6 µg/mL
Cc1cc(C)cc(S(=O)(=O)c2c(C(=O)NS(=O)(=O)c3ccc(F)cc3F)[nH]c3ccc(Cl)cc23)c1 ; cell line: MT-4 ; read by: MTT ; changes: Y181C ; endpoint: EC50 ; value: 5.33 µM
O=C1Nc2ccc(Cl)cc2[C@@](C#CC2CC2)(C(F)(F)F)[C@H]1OCc1ccncc1 ; cell line: MT-2 ; changes: RT-K103N ; endpoint: EC50 ; value: <0.05 µM
S=C(NCCN1CCNCC1)Nc1ccc(Br)cn1 ; cell line: CEM + CEM-SS ; read by: RT activity ; strain: IIIB ; endpoint: EC50 ; value: 13 µM
Cc1cn([C@H]2C[C@H](N=[N+]=[N-])[C@@H](CO)O2)c(=O)[nH]c1=O ; cell line: C8166 ; read by: p24 / ELISA ; strain: RF ; endpoint: EC50 ; value: 0.08 µg/mL
N#Cc1cccc(-n2nnnc2SCC(=O)Nc2ccccc2[N+](=O)[O-])c1 ; cell line: MT-4 ; read by: p24 ; endpoint: EC95 ; value: <10 µM
Nn1cc(C(=O)O)c(=O)c2ccc(N3CCN(c4ccccn4)CC3)cc21 ; cell line: MT-4 ; read by: MTT ; strain: IIIB ; endpoint: EC50 ; value: 6.32 µM
COc1ccc2nc(-c3cccc(N)c3)ccc2c1 ; cell line: MT-2 ; read by: MTT ; strain: NL4-3 ; endpoint: EC50 ; value: 72.71 µM
CCN(CC)CCCC(C)Nc1ccnc2cc(Cl)ccc12 ; cell line: U-937 ; read by: RT activity ; endpoint: EC50 ; value: <100 µM
COc1cc(OC)c2ccc(-c3cccc([N+](=O)[O-])c3)nc2c1 ; cell line: MT-2 ; read by: luciferase ; strain: NL4-3-Luc ; endpoint: EC50 ; value: 16.74 µM
Cc1ccc(-n2nnnc2SCC(=O)Nc2ccccc2Cl)c([N+](=O)[O-])c1 ; cell line: MT-4 ; read by: p24 ; endpoint: EC50 ; value: <10 µM
CC(C)=CCOc1cc(NC(=S)c2ccoc2C)ccc1Cl ; cell line: CEM ; read by: syncytia ; strain: IIIB ; changes: RT-K103N ; endpoint: EC50 ; value: 0.07 µg/mL
O=C1Nc2ccc(Cl)cc2[C@@](C#CC2CC2)(C(F)(F)F)[C@H]1OCc1ccccc1F ; cell line: MT-2 ; strain: RF ; endpoint: EC50 ; value: <0.14 µM
Cn1cc(NC(=O)Nc2cc(C(=O)Nc3cc(C(=O)Nc4cc(C(=O)Nc5ccc(P(=O)(O)O)c6cc(P(=O)(O)O)ccc56)n(C)c4)n(C)c3)n(C)c2)cc1C(=O)Nc1cc(C(=O)Nc2cc(C(=O)Nc3ccc(P(=O)(O)O)c4cc(P(=O)(O)O)ccc34)n(C)c2)n(C)c1 ; cell line: CEM + CEM-SS ; read by: cytopathic effect / XTT ; strain: RF ; endpoint: EC50 ; value: 1.4 µM
NS(=O)(=O)c1ccc(NC(=O)CSc2nnnn2-c2cc(Cl)ccc2Cl)c(Cl)c1 ; cell line: MT-4 ; read by: p24 ; endpoint: EC95 ; value: <10 µM
C=CCN(N=O)C(=O)NCCCC[C@H](NC(C)=O)C(=O)NCc1ccccc1 ; cell line: CEM-IW + CEM ; read by: cytopathic effect / XTT ; strain: IIIB ; endpoint: EC50 ; value: >100 µM
C=Cn1cc(C(=O)O)c(=O)c2cc(N)c(N3CCN(c4ccccn4)CC3)cc21 ; cell line: MT-4 ; read by: MTT ; strain: IIIB ; endpoint: EC50 ; value: 0.033 µM
Cn1cc(NC(=O)Nc2cc(C(=O)Nc3cc(C(=O)Nc4ccc5c(S(=O)(=O)O)cccc5c4S(=O)(=O)O)n(C)c3)n(C)c2)cc1C(=O)Nc1cc(C(=O)Nc2ccc3c(S(=O)(=O)O)cccc3c2S(=O)(=O)O)n(C)c1 ; cell line: CEM + CEM-SS ; read by: cytopathic effect / XTT ; strain: RF ; endpoint: EC50 ; value: 23 µM
CC(=O)N[C@@H](CCCN)C(=O)NCc1ccccc1 ; cell line: CEM-IW + CEM ; read by: cytopathic effect / XTT ; strain: IIIB ; endpoint: EC50 ; value: >100 µM
O=C1Nc2ccc(Cl)cc2[C@@](C#CC2CC2)(C(F)(F)F)[C@H]1OCC1CC1 ; cell line: MT-2 ; strain: RF ; endpoint: EC50 ; value: <0.13 µM
COc1ccc2c(c1)[C@@H](N1CCCC1=O)C[C@@H](c1cccc(N)c1)N2 ; cell line: MT-2 ; read by: MTT ; strain: NL4-3 ; endpoint: EC50 ; value: 69.07 µM
Cc1ccc(C)c(C(Cl)S(=O)(=O)c2cc(C)cc[n+]2[O-])c1 ; cell line: CEM ; read by: syncytia ; strain: IIIB ; changes: RT-K103N ; endpoint: EC50 ; value: >4 µg/mL
C=CCNC(=O)N(CCC)CCC[C@H](NC(C)=O)C(=O)NCc1ccccc1 ; cell line: CEM-IW + CEM ; read by: cytopathic effect / XTT ; strain: IIIB ; endpoint: EC50 ; value: >100 µM
O=c1ccn([C@H]2C=C[C@@H](CO)O2)c(=O)n1CCCCCCN1CCN(CCNC(=S)Nc2ccc(Br)cn2)CC1 ; cell line: PBMC ; read by: RT activity ; strain: IIIB ; endpoint: EC50 ; value: 88 µM
Cc1cc(C)cc(S(=O)(=O)c2c(C(=O)NS(=O)(=O)C(F)(F)F)[nH]c3ccc(Cl)cc23)c1 ; cell line: MT-4 ; read by: MTT ; strain: IIIB ; endpoint: EC50 ; value: 2.95 µM
CC(=O)N[C@@H](CCCCNC(=O)N(C)N=O)C(=O)NCc1ccccc1 ; cell line: CEM-IW + CEM ; read by: cytopathic effect / XTT ; strain: IIIB ; endpoint: EC50 ; value: >100 µM
COc1ccc2c(c1)[C@@H](N1CCCC1=O)C[C@@H](c1cccc([N+](=O)[O-])c1)N2 ; cell line: MT-2 ; read by: MTT ; strain: NL4-3 ; endpoint: EC50 ; value: >50 µM
CCCS(=O)(=O)NC(=O)c1[nH]c2ccc(Cl)cc2c1S(=O)(=O)c1cc(C)cc(C)c1 ; cell line: MT-4 ; read by: MTT ; changes: Y181C ; endpoint: EC50 ; value: 5.51 µM
CCCN(CCC[C@H](NC(C)=O)C(=O)NCc1ccccc1)C(=O)N(CCCl)N=O ; cell line: CEM-IW + CEM ; read by: cytopathic effect / XTT ; strain: IIIB ; endpoint: EC50 ; value: >100 µM
Cc1ccc(C)c(CS(=O)(=O)c2cccc[n+]2[O-])c1 ; cell line: CEM ; read by: syncytia ; strain: HE ; endpoint: EC50 ; value: 11 µg/mL
CCN1c2ncc(CCOc3ccc(-c4ccc(CC(=O)O)c(F)c4)cc3C)cc2C(=O)N(C)c2cccnc21 ; cell line: C8166 ; read by: p24 ; strain: IIIB ; endpoint: EC50 ; value: <0.01 µM
O=[N+]([O-])c1cccc(-c2ccc3ccccc3n2)c1 ; cell line: MT-2 ; read by: luciferase ; strain: NL4-3-Luc ; endpoint: EC50 ; value: 19.66 µM
COc1ccc(C)cc1CS(=O)(=O)c1cccc[n+]1[O-] ; cell line: CEM ; read by: syncytia ; strain: MN ; endpoint: EC50 ; value: 40 µg/mL
O=c1ccn([C@H]2C=C[C@@H](CO)O2)c(=O)n1CCCN1CCN(CCNC(=S)Nc2ccc(Br)cn2)CC1 ; cell line: MT-4 ; read by: RT activity ; strain: IIIB ; endpoint: EC50 ; value: >100 µM
Nn1cc(C(=O)O)c(=O)c2cc(O)c(N3CCN(c4cccc(C(F)(F)F)c4)CC3)cc21 ; cell line: MT-4 ; read by: MTT ; strain: IIIB ; endpoint: EC50 ; value: >20.96 µM
Cn1cc(N)cc1C(=O)Nc1ccc(S(=O)(=O)O)c2cc(S(=O)(=O)O)ccc12 ; cell line: CEM + CEM-SS ; read by: cytopathic effect / XTT ; strain: RF ; endpoint: EC50 ; value: >300 µM
CCN1c2ncc(CCOc3ccc(-c4ccc(C(O)C(=O)O)cc4)cc3C)cc2C(=O)N(C)c2cccnc21 ; cell line: C8166 ; read by: p24 ; strain: IIIB ; endpoint: EC50 ; value: 0.01–0.05 µM
Cc1cc(C)cc(S(=O)(=O)c2c(C(=O)NS(=O)(=O)c3ccccc3)[nH]c3ccc(Cl)cc23)c1 ; cell line: MT-4 ; read by: MTT ; changes: E138K ; endpoint: EC50 ; value: 1.2 µM
CCN1c2ncc(CCOc3ccc(-c4cocn4)cc3C)cc2C(=O)N(C)c2cccnc21 ; cell line: C8166 ; read by: p24 ; strain: IIIB ; endpoint: EC50 ; value: <0.01 µM
Nc1ccc(CO[C@H]2C(=O)Nc3ccc(Cl)cc3[C@@]2(C#CC2CC2)C(F)(F)F)cc1 ; cell line: MT-2 ; changes: RT-L100I ; endpoint: EC50 ; value: <0.049 µM
CC(C)[C@H](NC(=O)OCc1ccccn1)C(=O)N[C@@H](Cc1ccccc1)[C@@H](O)C[C@H](Cc1ccccc1)NC(=O)OCc1cccnc1 ; cell line: MT-4 ; read by: p24 ; strain: NL4-3 ; changes: PR-L10R L63P V82T ; endpoint: EC95 ; value: 3 µM
Cn1cc(NC(=O)Nc2cc(C(=O)Nc3cc(C(=O)Nc4ccc(P(=O)(O)O)c5cc(P(=O)(O)O)ccc45)n(C)c3)n(C)c2)cc1C(=O)Nc1cc(C(=O)Nc2ccc(P(=O)(O)O)c3cc(P(=O)(O)O)ccc23)n(C)c1 ; cell line: CEM + CEM-SS ; read by: cytopathic effect / XTT ; strain: G762-3 ; endpoint: EC50 ; value: 0.1 µM
Cc1c(C(=O)O)c(=O)c2cc(N)c(N3CCN(c4ccccn4)CC3)cc2n1C ; cell line: MT-4 ; read by: MTT ; strain: IIIB ; endpoint: EC50 ; value: >177 µM
O=c1ccn([C@H]2C=C[C@@H](CO)O2)c(=O)n1C/C=C/CN1CCN(CCNC(=S)Nc2ccc(Br)cn2)CC1 ; cell line: CEM + CEM-SS ; read by: RT activity ; strain: IIIB ; endpoint: EC50 ; value: >100 µM

For reference, 8 entries again:

SMILES,cell line,read by,strain,changes,endpoint,value
COC(=O)c1sccc1NC(=O)CSc1nnnn1-c1c(C)cc(C)cc1C,MT-4,p24,-,-,EC95,<10 µM
O=c1ccn([C@H]2C=C[C@@H](CO)O2)c(=O)n1CCCN1CCN(CCNC(=S)Nc2ccc(Br)cn2)CC1,MT-4,RT activity,IIIB,-,EC50,>100 µM
O=C1Nc2ccc(Cl)cc2[C@@](C#CC2CC2)(C(F)(F)F)[C@H]1OCc1ccncc1,MT-2,-,-,RT-K103N,EC50,<0.05 µM
Cc1ccc(C)c(CS(=O)(=O)c2cccc[n+]2[O-])c1,CEM,syncytia,HE,-,EC50,11 µg/mL
COc1ccc2nc(-c3cccc(N)c3)ccc2c1,MT-2,MTT,NL4-3,-,EC50,72.71 µM
N#Cc1cccc(-n2nnnc2SCC(=O)Nc2ccccc2[N+](=O)[O-])c1,MT-4,p24,-,-,EC95,<10 µM
Cc1ccc(-n2nnnc2SCC(=O)Nc2ccccc2Cl)c([N+](=O)[O-])c1,MT-4,p24,-,-,EC50,<10 µM
COc1ccc(C)cc1CS(=O)(=O)c1cccc[n+]1[O-],CEM,syncytia,MN,-,EC50,40 µg/mL